Experimental data: paper PMC8303886, “Polyphenylglyoxamide-Based Amphiphilic Small Molecular Peptidomimetics as Antibacterial Agents with Anti-Biofilm Activity” (International Journal of Molecular Sciences, 2021)

Each compound was assayed on MRC-5 normal human lung fibroblasts (assay: MTT cytotoxicity assay). Conditions: IC50 against MRC-5 cells divided by MIC against E. coli.
Assay type: cell-based
Method: The IC50 values of the tested peptidomimetics were determined from a dose-response curve. […] The therapeutic indices for each tested peptidomimetic against Gram-positive S. aureus and Gram-negative E. coli were calculated by dividing the IC50 value against human cells by the corresponding MIC value (Table 2).
The toxicity of the peptidomimetics against normal human lung fibroblasts MRC-5 cells was measured, using an MTT (3-(4,5-dimethylthiazol-2-yl)-2,5-diphenyltetrazolium bromide) (Sigma Aldrich, St. Louis, MO, USA) colorimetric assay. The cells were cultured in minimal essential medium (MEM, Invitrogen) containing 10% foetal bovine serum (FBS). The cells were maintained at 37 °C in 5% CO2 as an adherent monolayer and was passaged upon reaching confluence by standard cell culture techniques. MRC-5 cells were seeded at 5000 cells/well in 96-well plates to ensure full confluence (quiescence) and left overnight to adhere to the plate wells. The adherent cells were treated with 1–500 μM of compounds by dissolving in DMSO and serially diluting with media. TY-01 was used as the positive control. The final concentration of DMSO was 0.5% (v/v). After the 72 h drug incubation, […] stock MTT solution (5 mg/mL) was added, and the cells were incubated for another 3.5–4 h. The MTT solution containing media was carefully aspirated without displacing the purple crystals from the bottom, and […] acid-isopropanol was added to all wells and mixed slowly by shaking with an orbital shaker to dissolve the dark blue crystals. […] The determination of IC50 values was performed using GraphPad Prism 7 (GraphPad, San Diego, CA, USA). Each experiment was performed in triplicate and was repeated in three independent experiments.

Structure (SMILES)	Therapeutic Index E. coli
CCCCCCCCCCCCS(=O)(=O)Nc1ccc(Br)cc1C(=O)C(=O)NCCC[N+](C)(C)C.[I-] [Compound 17b, 3-(2-(5-Bromo-2-(dodecylsulfonamido)phenyl)-2-oxoacetamido)-N,N,N-trimethylpropan-1-aminium iodide]	0.57

Same assay, conditions: IC50 against MRC-5 cells divided by MIC against S. aureus

Structure (SMILES)	Therapeutic Index S. aureus
CCCCCCCCS(=O)(=O)Nc1ccc(-c2ccc(-c3ccccc3)cc2)cc1C(=O)C(=O)NCCCN(C)C [Compound 10d, N-(3-(Dimethylamino)propyl)-2-(4-(octylsulfonamido)-[1,1′:4′,1″-terphenyl]-3-yl)-2-oxoacetamide]	0.44
CCCCCCCCS(=O)(=O)Nc1ccc(-c2ccc(-c3ccccc3)cc2)cc1C(=O)C(=O)NCCCN(C)C.Cl [Compound 13d, N,N-Dimethyl-3-(2-(4-(octylsulfonamido)-[1,1′:4′,1″-terphenyl]-3-yl)-2-oxoacetamido)propan-1-aminium chloride]	0.24
CCCCCCCCCCCCS(=O)(=O)Nc1ccc(Br)cc1C(=O)C(=O)NCCC[N+](C)(C)C.[I-] [Compound 17b, 3-(2-(5-Bromo-2-(dodecylsulfonamido)phenyl)-2-oxoacetamido)-N,N,N-trimethylpropan-1-aminium iodide]	2.29–7.18 and 2.29
CCCCCCCCS(=O)(=O)Nc1ccc(-c2cccc(-c3ccccc3)c2)cc1C(=O)C(=O)NCCCN(C)C.Cl [Compound 22, N,N-Dimethyl-3-(2-(4-(octylsulfonamido)-[1,1′:3′,1″-terphenyl]-3-yl)-2-oxoacetamido)propan-1-aminium chloride]	0.22
CCCCCCCCS(=O)(=O)Nc1ccc(-c2cccc(-c3ccccc3)c2)cc1C(=O)C(=O)NCCC[N+](C)(C)C.[I-] [Compound 23, N,N,N-Trimethyl-3-(2-(4-(octylsulfonamido)-[1,1′:3′,1″-terphenyl]-3-yl)-2-oxoacetamido)propan-1-aminium iodide]	1.93
CCCCCCCCS(=O)(=O)Nc1ccc(-c2ccc(-c3ccccc3)cc2)cc1C(=O)C(=O)NCCCNC(=N)N.Cl [Compound 33d, N-(3-Guanidinopropyl)-2-(4-(octylsulfonamido)-[1,1′:4′,1″-terphenyl]-3-yl)-2-oxoacetamide hydrochloride]	1.05–3.40 and 1.05
CCCCCCCCCCCCS(=O)(=O)Nc1ccc(Br)cc1C(=O)C(=O)NCCCNC(=N)N.Cl [Compound 34b, 2-(5-Bromo-2-(dodecylsulfonamido)phenyl)-N-(3-guanidinopropyl)-2-oxoacetamide hydrochloride]	1.05–3.40 and 1.32

Several values for one entry are separate records, joined by “and”; a condition that tells them apart may be missing. Identical values can stand only once.
